Data on 2 sequences can be found in paper PMC12077194, “Structural basis for spermidine recognition and modulation of Acinetobacter baumannii multidrug efflux regulator AmvR” (mBio, 2025).

The subject of series [1] is AmvR (Acinetobacter baumannii). The series is described as follows: competition with a labelled probe. Particulars: unlabeled DNA 1 abolished the shift of FAM_DNA 1; EMSA: 100 mM HEPES-Na pH 8.0, 100 mM KCl, 50 mM MgCl2, 5% glycerol, 10 mM DTT, 10 mM EDTA, 0.1 mg/mL BSA, 30 min, room temperature; recombinant protein; protein details: His-MBP tag removed with TEV protease.

The test system of series [2] is AmvR (Acinetobacter baumannii). The series is described as follows: DNase I footprinting. As to conditions: 18 uM AmvR, 10 mM MgCl2, 1 mM CaCl2, two protected palindromic regions (sequences in Fig. 2D only); footprinting: 10 mM HEPES-Na pH 8.0, 10 mM MgCl2, 1 mM CaCl2, 0.4 mM DTT, 100 mM KCl, 5% glycerol, room temperature (digestion 25 C); recombinant protein; protein details: His-MBP tag removed with TEV protease; label: 5'-FAM on strand 1.

In series [3] the test system is AmvR (Acinetobacter baumannii). Put plainly: EMSA. Particulars: 0.2 uM DNA, 50 mM MgCl2; EMSA: 100 mM HEPES-Na pH 8.0, 100 mM KCl, 50 mM MgCl2, 5% glycerol, 10 mM DTT, 10 mM EDTA, 0.1 mg/mL BSA, 30 min, room temperature; recombinant protein; protein details: His-MBP tag removed with TEV protease; label: 5'-FAM on strand 1.

Construct, isoform or probe ends are uncertain for at least one entry.

Regarding “AATCATTTCTCTGCGTTGATCGCGATTAAGATAGGCCATGTTTTTTTACCTGACTGAATTCGACACAAATTACATTAAAACTAAAAGTTGGACAAGTGTCCAGTTGTGTATATAATAACCATGATTTGAACACATGTCCAAGTTTTGGATATTGAAGAGCGTTATGCAAAAAAAATGGTTAATCCTGACAATTATCGTCCTCATTTATTTACCAGTTACGATTGATGCAACGGTAATGCATGTTGCAACACCATCTTTAAGTGCAGCATTGAATTTAACTGCCAATCAGCTTTTATGGATTATTGATATTTATTCACTGATTATGGCGGGTTTGATTTTGCCGATGGGTGCAC (double strand) [DNA 1 (unlabeled)]”, the binding result in series [1] is “binds”.
As for “AATCATTTCTCTGCGTTGATCGCGATTAAGATAGGCCATGTTTTTTTACCTGACTGAATTCGACACAAATTACATTAAAACTAAAAGTTGGACAAGTGTCCAGTTGTGTATATAATAACCATGATTTGAACACATGTCCAAGTTTTGGATATTGAAGAGCGTTATGCAAAAAAAATGGTTAATCCTGACAATTATCGTCCTCATTTATTTACCAGTTACGATTGATGCAACGGTAATGCATGTTGCAACACCATCTTTAAGTGCAGCATTGAATTTAACTGCCAATCAGCTTTTATGGATTATTGATATTTATTCACTGATTATGGCGGGTTTGATTTTGCCGATGGGTGCAC (double strand) [FAM_DNA 1 (amvR-amvA intergenic region)]”, the binding result in series [2] and in series [3] was “binds” throughout.
